Measured values from several laboratories, pooled; numbers as filed in NIAID ChemDB.

Common to all: whole-cell or culture tests; species: HIV-1; measure: EC90

Rows are shuffled and stem from different studies. ECn is the concentration giving n% inhibition of infection, replication or growth. Blank or dashed fields: not listed here.

SMILES	cells	changes	method	strain or isolate	result
Cc1cn([C@H]2CO[C@@H](CO[P@@]3(=O)OCC[C@@H](c4cccc(Cl)c4)O3)O2)c(=O)[nH]c1=O	PBMC	RT-M184V	RT activity	LAI	55.9 µM
Cc1cc(C)cc(S(=O)(=O)c2c(C(N)=O)[nH]c3c(Cl)cc(Cl)cc23)c1	C8166	RT-K103R	cytopathic effect / MTT	-	>100 µM
O=C1Nc2ccc(Cl)cc2[C@@](/C=C/C2CC2)(C(F)(F)F)N1	-	RT-V108I	-	-	<0.012 µM
CC(C)(C)C(=O)OCOP(=O)(CC[C@H]1O[C@@H](n2cnc3c(N)nc(N)nc32)[C@](C)(F)[C@@H]1O)OCOC(=O)C(C)(C)C	PBMC	-	PCR	LAI	>100 µM
CN1CC(=O)C(=O)C=C1Cn1cnc([N+](=O)[O-])c1Nc1cc(Cl)cc(Cl)c1	MT-4	-	MTT	IIIB	>7.3 µM
CC(C)(C)C(=O)OCOP(=O)(CC[C@H]1O[C@@H](n2cnc3c(=O)[nH]c(N)nc32)[C@](C)(F)[C@@H]1O)OCOC(=O)C(C)(C)C	PBMC	-	PCR	LAI	>100 µM
COC(=O)[C@H](C)NP(=O)(OC[C@@H]1OC[C@H](n2cc(C)c(=O)[nH]c2=O)O1)Oc1ccc(CC(C)(C)C)cc1	PBMC	RT-M184V	RT activity	LAI	4.7 µM
CSC[C@H]1O[C@@H](n2cnc3c(N)ncnc32)[C@H](O)[C@@H]1O	C8166	-	syncytia	-	>20 µM
CCN(CC)c1ncnc2c1ncn2[C@H]1CC[C@@H](CO)O1	C8166	-	cytopathic effect / MTT / p24	RF	100 µM
NCC(NC(=O)c1ccc(-c2cc(F)c(Cl)c(F)c2)[nH]1)c1nc(CO)cs1	PBMC	-	p24 / ELISA	NL4-3	>10 µM
CCOC(=O)[C@H](C)NP(=O)(OC[C@H]1O[C@@H](n2cc(I)c3c(N)ncnc32)[C@](C)(F)[C@@H]1O)Oc1ccccc1	PBMC	-	-	-	>100 µM
C[C@@]1(O)[C@H](O)[C@@H](CO)O[C@H]1n1cnc2c(N)n[nH]c(=O)c21	-	-	ELISA	LAI	>100 µM
COC(=O)[C@H](C)NP(=O)(OC[C@@H]1OC[C@H](n2cc(C)c(=O)[nH]c2=O)O1)Oc1ccccc1	PBMC	RT-M184V	RT activity	LAI	1.2 µM
COC(=O)/C=C/c1cn([C@H]2O[C@H](CO)[C@@H](O)[C@@]2(C)F)c2ncnc(N)c12	PBMC	-	-	-	9.5 µM
Nc1ccc(S(=O)(=O)N(CC2CCCC2)C[C@@H](O)CN(CCc2ccccc2)C(=O)O[C@H]2CCOC2)cc1	CEM	-	p24	IIIB	0.1 µM
Cc1cn([C@H]2C=C[C@@H](CO)O2)c(=O)[nH]c1=O	MT-4	-	p24	NL-XM WT	0.3 µM
COc1ccc(Nc2c([N+](=O)[O-])ncn2CC2=CC(=O)C(=O)CN2C)cc1	MT-4	-	MTT	IIIB	>250 µM
CNc1ncnc2c1ncn2[C@H]1CC[C@@H](CO)O1	C8166	-	cytopathic effect / MTT / p24	RF	40 µM
O=C1Nc2ccc(F)c(F)c2[C@@](C#CC2CC2)(C(F)(F)F)N1	-	RT-Y181C	-	-	<0.012 µM
COc1ccnc2[nH]cc(C(=O)C(=O)N3CCN(C(=O)c4ccccc4)C[C@H]3C)c12	TZM-bl	-	luciferase	QH0692	2.1 µM
C#Cc1cn([C@H]2O[C@H](CO)[C@@H](O)[C@@]2(C)F)c2nc(N)nc(N)c12	PBMC	-	-	-	59.1 µM
CCCN(CC(=O)c1ccccc1)C[C@H](O)CN(CC1CCCC1)S(=O)(=O)c1ccc(OC)cc1	CEM	-	p24	IIIB	1 µM
CCCCOP(=O)(OCCCC)OC[C@@H]1CC[C@H](n2cnc3c(N)nccc32)O1	MT-4	-	syncytia	IIIB	12 µM
C[C@@]1(O)[C@H](O)[C@@H](CO)O[C@H]1n1cnc2c(=N)n(N)[nH]c(=O)c21	-	-	ELISA	LAI	>100 µM
CNc1ncnc2c1c(F)cn2[C@@H]1O[C@H](CO)[C@@H](O)[C@@]1(C)F	PBMC	-	-	-	>100 µM
COC(=O)[C@@H](Cc1ccccc1)NP(=O)(OC[C@@H]1OC[C@H](n2cc(C)c(=O)[nH]c2=O)O1)Oc1ccccc1	PBMC	RT-M184V	RT activity	LAI	49.9 µM
CN1CC(=O)C(=O)C=C1Cn1cnc([N+](=O)[O-])c1Nc1ccc(C#N)cc1	MT-4	-	MTT	IIIB	>250 µM
COC(=O)[C@H](Cc1ccccc1)NP(=O)(OC[C@@H]1OC[C@H](n2cc(C)c(=O)[nH]c2=O)O1)Oc1ccccc1	PBMC	RT-M184V	RT activity	LAI	8.4 µM
CCOC(=O)[C@H](C)NP(=O)(OC[C@H]1O[C@@H](n2cc(I)c3c(N)nc(N)nc32)[C@](C)(F)[C@@H]1O)Oc1ccccc1	PBMC	-	-	-	>100 µM
O=C(c1ccccc1)N(CCc1ccccc1)C[C@H](O)CN(CC1CCCC1)S(=O)(=O)Cc1cccc2n[nH]nc12	CEM	-	p24	IIIB	1 µM
CCOC(=O)[C@H](C)NP(=O)(OC[C@H]1O[C@@H](n2ccc3c(N)nc(N)nc32)[C@](C)(F)[C@@H]1O)Oc1ccccc1	PBMC	-	-	-	>100 µM
Cc1ccc(C)n1-c1ccc(C(=O)O)c(O)c1	PBMC/5.25M7	-	luciferase / cell fusion	CMU02 X4 CLADE EA	85.2 µM
C[C@@]1(O)[C@H](O)[C@@H](CO)O[C@H]1n1cnc2c(=O)[nH]nc(N)c21	-	-	ELISA	LAI	>100 µM
NC1=NC2C(N=CN2[C@H]2C[C@@H](CCP(=O)(O)O)CO2)C(=O)N1	MT-4	-	MTT	-	95 µg/mL
Cc1cnc(NC(=O)NC(C)(C)C)n1CC(O)CN(CC(C)C)S(=O)(=O)c1ccccc1	CEM	-	p24	IIIB	1 µM
COc1ccnc2[nH]cc(C(=O)C(=O)N3C4CCC3CN(C(=O)c3ccccc3)C4)c12	TZM-bl	-	luciferase	AC10	18 µM
CCOC(=O)[C@H](C)NP(=O)(OC[C@H]1O[C@@H](n2cnc3c(C)nc(N)nc32)[C@](C)(O)[C@@H]1O)Oc1ccccc1	-	-	ELISA	LAI	>100 µM
C[C@@]1(F)[C@H](O)[C@@H](CO)O[C@H]1n1cc(Cl)c2c(N)ncnc21	PBMC	-	-	-	>100 µM
CCOP(=O)(OCC)OC[C@@H]1CC[C@H](n2cnc3c(N)nccc32)O1	MT-4	-	syncytia	IIIB	25 µM
CN1CC(=O)C(=O)C=C1Cn1cnc([N+](=O)[O-])c1Sc1ccc(Cl)cc1	MT-4	-	MTT	IIIB	>3.6 µM
C[C@@]1(O)[C@H](O)[C@@H](CO)O[C@H]1n1cnc(C(=O)NN)c1/C(N)=N/N	-	-	ELISA	LAI	>100 µM
O=C(c1ccccc1)N(CCc1ccccc1)C[C@H](O)CN(CC1CCCC1)S(=O)(=O)Cc1cncs1	CEM	-	p24	IIIB	1 µM
C[C@@]1(F)[C@H](O)[C@@H](CO)O[C@H]1n1cc(I)c2c(N)nc(N)nc21	PBMC	-	-	-	>100 µM
C[C@@]1(O)[C@H](O)[C@@H](CO)O[C@H]1n1cnc2c(N)nc(NN)nc21	-	-	ELISA	LAI	>100 µM

For reference, 4 entries again:

| SMILES | cells | changes | method | strain or isolate | result |
|---|---|---|---|---|---|
| COC(=O)[C@@H](Cc1ccccc1)NP(=O)(OC[C@@H]1OC[C@H](n2cc(C)c(=O)[nH]c2=O)O1)Oc1ccccc1 | PBMC | RT-M184V | RT activity | LAI | 49.9 µM |
| CN1CC(=O)C(=O)C=C1Cn1cnc([N+](=O)[O-])c1Nc1cc(Cl)cc(Cl)c1 | MT-4 | - | MTT | IIIB | >7.3 µM |
| CNc1ncnc2c1c(F)cn2[C@@H]1O[C@H](CO)[C@@H](O)[C@@]1(C)F | PBMC | - | - | - | >100 µM |
| CN1CC(=O)C(=O)C=C1Cn1cnc([N+](=O)[O-])c1Nc1ccc(C#N)cc1 | MT-4 | - | MTT | IIIB | >250 µM |